SMILES strings stand for the structures. Only a part is listed here, and it is no random draw. Active and inactive are the calls of the source.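 Rule for the calls: active = activation above the mean of all tested compounds plus 3 SD (cut at about 5.5% in these data); inactive = the rest.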

This assay has as its system DAF-12 nuclear receptor (Haemonchus contortus). The assay is described as follows: hcDAF-12 driven luciferase reporter activation – cell-based, luminescence, HEK293, lit1-tk-luc reporter, primary screen (AID 652067).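 Note: 100% = response to 3 µM Δ7-dafachronic acid high control.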 Particulars: HEK293 hcDAF-12 lit1-tk-luc reporter, at 6.8 µM, active compounds read high, 0% DMSO, 100% Δ7-dafachronic acid. For orientation: In a reporter assay the amount or activity of a reporter protein is the signal.
Take `c1ccc(CN2CCC(Nc3ccccc3)CC2)cc1`: the activation is inactive: 0.08%.
The result for `C/C(N)=N\P(=O)(Oc1ccccc1)Oc1ccccc1` reads inactive: 0.3%.
The result for `CCCN1CCC(Nc2cc(OC)cc(OC)c2)CC1` reads inactive: 3.05%; that for `O=c1[nH]c2ccccc2n1C1CCN(C(c2ccccc2)c2nnnn2C2CCCC2)CC1` (stereo not given), inactive: -1.23%; that for `Cc1cc(N(CCCl)CCCl)ccc1C=O`, inactive: -1.63%.
The result for `CN(C)C1(CNC(=O)c2cccc(C#N)c2)CCCCC1` reads inactive: 0.85%; that for `CC(C)(C)n1nnnc1C(c1cccc2ccccc12)N1CCC(n2c(=O)[nH]c3ccccc32)CC1` (stereo not given), inactive: -3.6%.
Consider `CC(C)(C)OC(=O)N1CCC(N(C(=O)c2ccccc2)c2ccc(Cl)cc2)CC1`, for which the activation was inactive: -0.53%.
The result for `N#Cc1ccc(C(=O)NCC2(N3CCCCC3)CCCCC2)cc1` reads inactive: -0.67%.
The result for `N/C(=N\O)c1c(N)no[n+]1[O-]` reads inactive: -0.23%; that for `COc1cccc(C(c2nnnn2C(C)(C)C)N2CCC(n3c(=O)[nH]c4ccccc43)CC2)c1OC` (stereo not given), inactive: -3.26%.
Take `CCOC(=O)N1CCC(Nc2ccc(C)cc2)CC1`: the activation was inactive: -3.71%.
On to `CCCCn1nnnc1C(c1cccc(OC)c1OC)N1CCC(n2c(=O)[nH]c3ccccc32)CC1` (stereo not given), for which the activation was inactive: -3.25%.
The result for `O=C(OC1CN2CCC1CC2)C1c2ccccc2C=Cc2ccccc21` (stereo not given) reads inactive: -0.72%; that for `O=c1[nH]c2ccccc2n1C1CCN(C(c2cccs2)c2nnnn2C2CCCC2)CC1` (stereo not given), inactive: -1.48%.
The result for `O=C(NCC1(N2CCOCC2)CCCCC1)c1cc(Br)ccc1Cl` reads inactive: -2.59%; that for `CCCCn1nnnc1C(c1ccccc1)N1CCC(n2c(=O)[nH]c3ccccc32)CC1` (stereo not given), inactive: -1.49%; that for `COc1cc(C(=O)NCC2(N3CCOCC3)CCCCC2)cc(OC)c1C`, inactive: -1.23%.
As to `COc1ccc(C(=O)NCC2(N3CCOCC3)CCCCC2)cc1OC`, the activation is inactive: -0.55%.
The result for `O=c1[nH]c2ccccc2n1C1CCN(C(c2ccnc3ccccc23)c2nnnn2C2CCCC2)CC1` (stereo not given) reads inactive: -2.78%.
The result for `O=c1[nH]c2ccccc2n1C1CCN(C(c2cccs2)c2nnnn2C2CCCCC2)CC1` (stereo not given) reads inactive: -3.71%; that for `NC(=O)C1(Nc2ccccc2)CCN(Cc2ccccc2)CC1`, inactive: -2.94%.
With `CCC(CO)(C(=O)OC1CN2CCC1CC2)c1ccccc1` (stereo not given) the figure was inactive: -0.51%.
For `COc1cc(OC)cc(C(=O)NCC2(N3CCOCC3)CCCCC2)c1`, the activation is inactive: -1.77%.
With `COc1cccc(C(c2nnnn2C2CCCC2)N2CCC(n3c(=O)[nH]c4ccccc43)CC2)c1OC` (stereo not given) the figure was inactive: -2.97%; with `COc1cccc(C(=O)N(c2cc(C)cc(C)c2)C2CCN(C(=O)OC(C)(C)C)CC2)c1`, inactive: 0.62%; with `CN1CCC(Nc2ccc(Cl)cc2)CC1`, inactive: -2.01%.
The result for `CCOc1ncccc1C(=O)NCC1(N2CCOCC2)CCCCC1` reads inactive: -1.25%.
The result for `CN1CCC(Nc2ccc(F)c(Cl)c2)CC1` reads inactive: -2.33%; that for `CCCOc1ccc(C(=O)NCC2(N(C)C)CCCCC2)cc1`, inactive: -0.4%.
With `O=c1[nH]c2ccccc2n1C1CCN(C(c2cc3ccccc3o2)c2nnnn2C2CCCC2)CC1` (stereo not given), the activation was inactive: -1.54%.
The result for `CC(C)(C)OC(=O)N1CCC(Nc2ccccc2)CC1` reads inactive: -0.84%; that for `O=C(O)C1(Nc2ccccc2)CCN(Cc2ccccc2)CC1`, inactive: -1%.
With `NN(c1ccccc1)C1CCN(CCc2ccccc2)CC1` the figure was inactive: -1.41%.
As to `Cc1ccccc1NC1(C#N)CCN(Cc2ccccc2)CC1`, the activation is inactive: -0.7%.
As for `CC(C)(C)n1nnnc1C(c1ccnc2ccccc12)N1CCC(n2c(=O)[nH]c3ccccc32)CC1` (stereo not given), the activation is inactive: -1.32%.
With `COc1ccc(C(c2nnnn2C2CCCCC2)N2CCC(n3c(=O)[nH]c4ccccc43)CC2)cc1` (stereo not given) the figure was inactive: 0.08%.
The result for `CCN1CCC(Nc2cccc(F)c2)CC1` reads inactive: 1.24%; that for `O=C(NCC1(N2CCCCC2)CCCCC1)c1ccco1`, inactive: 1.03%; that for `Cn1c(=O)[nH]cc(N(CCCl)CCCl)c1=O`, inactive: -0.32%.
With `CN(C)c1ccc(C(=O)NCC2(N3CCCCC3)CCCCC2)cc1` the figure was inactive: 1.32%; with `O=c1[nH]c2ccccc2n1C1CCN(C(c2ccnc3ccccc23)c2nnnn2C2CCCCC2)CC1` (stereo not given), inactive: -0.75%.
Turning to `COc1cc(OC)cc(C(=O)NCC2(N3CCCCC3)CCCCC2)c1`, the activation is inactive: 1.26%.
As to `CC(=O)N(c1ccccc1)C1CCNCC1`, the activation is inactive: 0.65%.
The result for `COc1cccc(C(c2nnnn2C2CCCCC2)N2CCC(n3c(=O)[nH]c4ccccc43)CC2)c1OC` (stereo not given) reads inactive: -3.59%.
The result for `CCC(c1nnnn1C1CCCCC1)N1CCC(n2c(=O)[nH]c3ccccc32)CC1` (stereo not given) reads inactive: 0.05%; that for `Cc1ccc(NC2(C#N)CCN(Cc3ccccc3)CC2)cc1`, inactive: -0.72%.
The result for `Cc1ccc(C(=O)NCC2(N3CCCCC3)CCCCC2)o1` reads inactive: 0.57%; that for `Fc1ccccc1NC1CCN(Cc2ccccc2)CC1`, inactive: -1.29%; that for `O=c1[nH]c2ccccc2n1C1CCN(C(c2ccccc2)c2nnnn2C2CCCCC2)CC1` (stereo not given), inactive: -2.46%.
Turning to `O=c1[nH]c2ccccc2n1C1CCN(C(c2cccc3ccccc23)c2nnnn2C2CCCC2)CC1` (stereo not given), the activation is inactive: 1.38%.
The result for `COc1cc(C(=O)NCC2(N(C)C)CCCCC2)ccc1OC(F)F` reads inactive: -1.48%; that for `CCOC(=O)N1CCC(Nc2cccc(C)c2)CC1`, inactive: -4.45%.
With `CCOc1ccc(C)cc1CN(CCCl)CCCl` the figure was inactive: -0.17%; with `CC(C)(C)n1nnnc1C(c1ccccc1)N1CCC(n2c(=O)[nH]c3ccccc32)CC1` (stereo not given), inactive: 0.54%.
For the compound `O=C1CCN(Cc2ccccc2)CC1`, the activation is inactive: -1.52%.
With `O=C(NCC1(N2CCCCC2)CCCCC1)c1ccc(F)cc1` the figure was inactive: 0.05%.
The result for `CCCCn1nnnc1C(c1cc2ccccc2o1)N1CCC(n2c(=O)[nH]c3ccccc32)CC1` (stereo not given) reads inactive: 3.06%; that for `O=P1(N(CCCl)CCCl)SCCCS1`, inactive: -1.14%; that for `CCCCOc1ccc(C(=O)NCC2(N3CCOCC3)CCCCC2)cc1`, inactive: 1.05%.
On to `COc1ccc(NC2CCN(CCc3ccccc3)CC2)c(OC)c1`, for which the activation was inactive: -2.1%.
With `CCOC(=O)N1CCC(Nc2ccc(F)cc2)CC1` the figure was inactive: -0.44%.
With `O=C(NCC1(N2CCOCC2)CCCCC1)c1cc2ccccc2o1` the figure was inactive: 3.02%; with `O=c1[nH]c2ccccc2n1C1CCN(C(c2ccccc2OC(F)(F)F)c2nnnn2C2CCCCC2)CC1` (stereo not given), inactive: 0.33%.
With `O=C(NCC1(N2CCCCC2)CCCCC1)c1ccc(Cl)nc1` the figure was inactive: 1.08%; with `Cc1cc(C)cc(N(C(=O)c2ccccc2)C2CCN(C(=O)OC(C)(C)C)CC2)c1`, inactive: -0.36%; with `CCOC(=O)N1CCC(Nc2ccc(OC)cc2)CC1`, inactive: -0.9%.
Regarding `CCCCn1nnnc1C(c1ccc(OC)cc1)N1CCC(n2c(=O)[nH]c3ccccc32)CC1` (stereo not given), the activation was inactive: 0.55%.
With `O=C(OC1CN2CCC1CC2)C1c2ccccc2Oc2ccccc21` (stereo not given) the figure was inactive: -0.77%; with `O=c1[nH]c2ccccc2n1C1CCN(C(c2cc3ccccc3o2)c2nnnn2C2CCCCC2)CC1` (stereo not given), inactive: 2.06%.
Turning to `O=C(NCC1(N2CCCCC2)CCCCC1)c1ccc(Cl)s1`, the activation is inactive: -0.04%.
The result for `N#CC1(Nc2ccccc2)CCN(Cc2ccccc2)CC1` reads inactive: -0.43%; that for `COc1ccc(Cl)cc1C(=O)NCC1(N2CCOCC2)CCCCC1`, inactive: 0.8%.
With `O=C(NCC1(N2CCCCC2)CCCCC1)c1ccc(=O)[nH]c1` the figure was inactive: 3.98%; with `CCCCn1nnnc1C(c1cccs1)N1CCC(n2c(=O)[nH]c3ccccc32)CC1` (stereo not given), inactive: -2.69%; with `CCCCn1nnnc1C(CC)N1CCC(n2c(=O)[nH]c3ccccc32)CC1` (stereo not given), inactive: -0.01%.
With `O=C(NCC1(N2CCCCC2)CCCCC1)c1cccs1` the figure was inactive: -0.42%.
As to `COc1ccc(C(=O)NCC2(N3CCCCC3)CCCCC2)cc1`, the activation is inactive: -1.44%.
With `CCC(c1nnnn1C1CCCC1)N1CCC(n2c(=O)[nH]c3ccccc32)CC1` (stereo not given) the figure was inactive: -2.5%; with `COc1ccc(C(=O)NCC2(N3CCCCC3)CCCCC2)c(OC)c1OC`, inactive: -0.51%.
With `CC(C)(C)OC(=O)N1CCC(N(C(=O)c2ccccc2)c2ccc(F)cc2)CC1` the figure was inactive: 2.26%; with `CSc1ccccc1C(=O)NCC1(N2CCCCC2)CCCCC1`, inactive: -1.94%.
For `Cc1cccc(NC2(C#N)CCN(Cc3ccccc3)CC2)c1`, the activation was inactive: 0.67%.
The result for `O=C(NCC1(N2CCCCC2)CCCCC1)c1cncc(Br)c1` reads inactive: 4.29%; that for `CN1CCC(Nc2cccc(F)c2)CC1`, inactive: 0.63%.
With `Cc1ccc(C(=O)NCC2(N(C)C)CCCCC2)o1` the figure was inactive: 1.54%; with `CCCOc1ccc(C(=O)NCC2(N(C)C)CCCCC2)cc1OC`, inactive: 0.07%.
The result for `COc1ccc(C(c2nnnn2C2CCCC2)N2CCC(n3c(=O)[nH]c4ccccc43)CC2)cc1` (stereo not given) reads inactive: -1.39%; that for `COC(=O)C1(Nc2ccccc2)CCN(Cc2ccccc2)CC1`, inactive: -0.41%.
`COc1ccc(CN(CCCl)CCCl)cc1Cl`: the activation was inactive: -0.93%.
The result for `CN(C)c1cccc(C(=O)NCC2(N3CCCCC3)CCCCC2)c1` reads inactive: -1.07%; that for `CC(C)c1ccc(NC2CCN(C(=O)OC(C)(C)C)CC2)cc1`, inactive: -0.11%; that for `CCCCn1nnnc1C(c1ccnc2ccccc12)N1CCC(n2c(=O)[nH]c3ccccc32)CC1` (stereo not given), inactive: -1.98%.
The result for `COc1cc(OC)c(C(=O)NCC2(N(C)C)CCCCC2)cc1OC` reads inactive: -1.2%; that for `O=C(NCC1(N2CCOCC2)CCCCC1)c1cc(F)c(F)cc1Cl`, inactive: 0.35%; that for `CCC(c1nnnn1C(C)(C)C)N1CCC(n2c(=O)[nH]c3ccccc32)CC1` (stereo not given), inactive: -1.11%.
The result for `O=C(NCC1(N2CCCCC2)CCCCC1)c1cccc(C(F)(F)F)c1` reads inactive: 0.59%; that for `CCCCn1nnnc1C(c1cccc2ccccc12)N1CCC(n2c(=O)[nH]c3ccccc32)CC1` (stereo not given), inactive: -1%; that for `CN1CCN(CCOC(=O)C(O)(c2ccccc2)c2ccccc2)CC1`, inactive: 2.31%.
On to `COc1ccc(NC2CCN(C(=O)OC(C)(C)C)CC2)cc1`, for which the activation was inactive: -0.78%.
Take `CC(C)c1ccc(C(=O)NCC2(N3CCOCC3)CCCCC2)cc1`: the activation was inactive: 0.11%.
The result for `COc1cc(C(=O)NCC2(N3CCCCC3)CCCCC2)ccc1OC(F)F` reads inactive: 0.64%.
With `O=C(NCC1(N2CCOCC2)CCCCC1)c1cc(=O)[nH]c2ccccc12` the figure was inactive: -1.79%; with `CC(C)(C)n1nnnc1C(c1ccccc1OC(F)(F)F)N1CCC(n2c(=O)[nH]c3ccccc32)CC1` (stereo not given), inactive: -0.97%.
Consider `O=C(NCC1(N2CCCCC2)CCCCC1)c1ccc(OC(F)F)cc1`, for which the activation is inactive: 1.78%.
Consider `O=C(NCC1(N2CCCCC2)CCCCC1)c1cccc([N+](=O)[O-])c1`, for which the activation was inactive: -0.04%.
`CSc1ccc(C(=O)NCC2(N3CCOCC3)CCCCC2)cc1`: the activation is inactive: -0.5%.
The result for `CCN1CCC(Nc2ccc(Cl)cc2)CC1` reads inactive: -0.12%; that for `N#CC1(Nc2ccccc2)CCN(CCc2ccccc2)CC1`, inactive: -1.37%.
The result for `O=c1[nH]c2ccccc2n1C1CCN(C(c2ccccc2OC(F)(F)F)c2nnnn2C2CCCC2)CC1` (stereo not given) reads inactive: -1.65%.

Source of the values: PubChem BioAssay AID652067 (The Scripps Research Institute Molecular Screening Center, 2013).
